# PubChem BioAssay AID504761 – Drosophila RNAi Screening Center, 2011
# Assay: 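Genome-wide fly cell screen for genes dengue virus requires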 (primary screen)
# System: D.Mel-2 cells from Drosophila
# Knock-down reagent: long dsRNA against Drosophila genes
# Conditions: infection with dengue virus type 2; dose and infection time not stated
# Detection: 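Cells stained for dengue envelope protein and imaged; percent of infected cells per well on duplicate plates, ranked by infection, with stained nuclei counted for cell number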
# Scale: infection score: higher = more virus-infected cells; cell count: higher = more cells in the well
# Hit rule: 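Very low infection ranking in both replicate wells (chance probability at most 0.065), then a retest showing infection dropped 1.5-fold or more at p below 0.05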
# Calls: active = confirmed: knock-down lowers infection; inactive = not picked or not confirmed
# In all, the deposit lists about 22,000 reagents; this is an unselected part of those that have a named target and a result. Of all reagents, 116 (0.52%) are marked active. 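Calls depend on retest data that are not deposited; infection was ranked per plate without normalising between plates; the unit of the infection score is not given.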 Raw values are not corrected between plates. A number with no mark means an inactive call. The numbers tell different reagents against one gene apart. A plus sign joins genes that one reagent is predicted to hit. The record does not give: the amount of reagent, the time to read-out.
target,reagent,"infection score, replicate 1","infection score, replicate 2","cell count, replicate 1","cell count, replicate 2"
Adgf-A (Adenosine deaminase-related growth factor A),1,22.5,5.9,3671,6353
Adgf-A (Adenosine deaminase-related growth factor A),2,2.38,11.1,6216,6394
Cyp9f2 (Cytochrome P450 9f2),1,17.8,28.3,5304,4627
CG12929,1,2.45,8.72,6437,6549
Taf2 (TBP-associated factor 2),1,12.4,8.19,4801,5626
Taf2 (TBP-associated factor 2),2,22.6,12.8,4900,4949
His4:CG33883 + His4:CG33889 + His4:CG33899 + 20 more,1,10.5,3.62,5911,6466
His4:CG33883 + His4:CG33889 + His4:CG33899 + 20 more,2,7.55,14.9,6344,3659
CG17742 (retired record),1,7.79,6.74,5723,6546
CG12206,1,18,11,4532,3439
CG13458,1,7.44,4.44,6211,6821
CG13458,2,8.35,9.49,6766,6499
CG17349,1,11.6,2.96,5538,6752
EMC7 (ER membrane protein complex subunit 7),1,11.4,11.8,6559,6587
Usp20-33 (Ubiquitin specific protease 20/33),1,3.17,15.4,5842,6294
Blm + CG14721,1,9.91,21.1,6369,4698
CG4615,1,0.1,0.18,6794,6815
CG4615,2,6.08,9.1,6165,5747
CG4615,3,3.76,13.8,7075,6275
MED27 (Mediator complex subunit 27),1,15.9,33.5,5827,5355

Individual results from the list:
CG4615 #1, cell count, replicate 2 → 6815
CG12206, cell count, replicate 1: 4532
CG12929, infection score, replicate 1 = 2.45
Value of Cyp9f2 (Cytochrome P450 9f2) in “cell count, replicate 1”: 5304
Adgf-A (Adenosine deaminase-related growth factor A) #1, cell count, replicate 1 → 3671

The list goes on.
target,reagent,"infection score, replicate 1","infection score, replicate 2","cell count, replicate 1","cell count, replicate 2"
mtd (mustard),1,20.7,25.9,5643,6712
mtd (mustard),2,8.84,12,6505,6993
mtd (mustard),3,5.04,3.83,7026,6768
mtd (mustard),4,,,380,332
CG33191,1,8.28,8.31,6886,6651
CG18180,1,5.18,3.09,6063,6443
CG18180,2,7.34,3.31,6088,6471
Zif (Zinc-finger protein),1,4.75,7.02,5157,5331
nec (necrotic),1,2.5,0.61,6718,494
CG15414,1,3.3,3.34,6306,6256
CG15414,2,5.79,4.46,6233,6809
CG15414,3,16.7,10.5,5123,3373
ncd (non-claret disjunctional),1,3.21,1.46,6208,6039
CG5327 + CG5493,1,9.29,16.9,6095,5913
Rif1 (Rap1 interacting factor 1),1,0.8,2.26,6342,5890
CG11841,1,3.16,1.41,5852,6363
CG11841,2,15.4,14,5615,6592
Spn88Eb (Serpin 88Eb),1,6.08,9.53,6974,6664
Rbp6 (RNA-binding protein 6),1,4.71,2.37,6205,6160
Rbp6 (RNA-binding protein 6),2,3.38,16.9,6588,5363
